Anti-infective test results gathered from many reports (values: NIAID ChemDB through PubChem).

All rows: whole-cell or culture tests; species: Human cytomegalovirus; endpoint: EC50

ECn is the concentration giving n% inhibition of infection, replication or growth.

smiles	strain or isolate	method	result
OC[C@H]1O[C@@H](n2c(Cl)nc3cc4cc(Cl)c(Cl)cc4cc32)[C@H](O)[C@@H]1O			8–16 µM
CC(=O)Nc1ccc(NC(=S)Nc2cc(Cl)c(O)c(Cl)c2C)cc1		plaque count	50 µg/mL
O=c1[nH]c(=O)n(CC=C(CO)CO)cc1I			>100 µg/mL
CCCCCCCc1cc2cnc(OC3CCCC3)nc2o1	DAVIS		3 µM
O=C(Nc1ccc(NC(=S)Nc2ccc(Cl)c(Cl)c2)cc1)c1csnn1			0.019 µM
[N-]=[N+]=N[C@H]1C[C@@H](CO)S[C@@H]1n1cnc2c(=O)[nH]cnc21			<100 µg/mL
Nc1nc2c(ncn2CCC(CO)CO)c(=O)[nH]1		plaque count	10–100 µM
Nc1ccn(CC=C(CO)CO)c(=O)n1			>100 µg/mL
CCN(C)c1ccc(Oc2ccccc2)cc1	AD169	plaque count	>100 µM
C=C1[C@H](CO)OC[C@@H]1n1cnc2c(N)ncnc21			>33.3 µg/mL
[N-]=[N+]=N[C@H]1C[C@H](CO)SC1n1cnc2c(N)ncnc21			<100 µg/mL
Nc1ncc2c(ncn2/C=C2/CC2CO)n1		ELISA	>100 µM
O=C(Nc1ccc(NC(=S)Nc2cc(C(F)(F)F)cc(C(F)(F)F)c2)cc1)c1csnn1			0.037 µM
OC[C@H]1O[C@@H](n2c(Br)nc3cc(Cl)c(Cl)cc32)[C@H](O)[C@@H]1O	48041 (GCV-susceptible)	plaque count	0.64 µM
Nc1nc2c(ncn2[C@@H]2C=C[C@H](CO)[C@@H](O)C2)c(=O)[nH]1	U 9070		0.13 µg/mL
C=CCN(c1ccc(NC(=S)Nc2ccc(NC(C)=O)cc2)cc1Cl)C1CCCCC1		plaque count	>10 µg/mL
Cc1cn([C@H]2C[C@@H](N=[N+]=[N-])[C@@H](CO)O2)c(=O)[nH]c1=O	AD169	plaque count	>100 µM
Nc1nc2c(ncn2C=C2CC2CO)c(=O)[nH]1	VR5120 (ganciclovir-resistant)	plaque count	2.2 µM
Oc1ccc(Oc2ccc(NC3CCCC3)cc2)cc1	AD169	plaque count	7.1 µM
Nc1nc2c(ncn2COC(CO)CO)c(=O)[nH]1	48041 (GCV-susceptible)	plaque count	27 µM
Nc1nc2c(ncn2[C@@H]2C[C@H](CO)[C@H]2CO)c(=O)[nH]1		plaque count	1–10 µM
CCC(C)Nc1ccc(Sc2ccc(O)cc2)cc1	AD169	plaque count	30 µM
OC[C@H]1O[C@@H](n2c(Br)nc3cc(Cl)c(Cl)cc32)[C@H](O)[C@@H]1O			<1 µM
Cc1ccc(S(=O)(=O)N2CCN(c3cc(=O)n(Cc4cc(C)cc(C)c4)c(=O)n3CC#N)CC2)cc1	AD169		>99 µM
[N-]=[N+]=N[C@H]1C[C@H](CO)S[C@@H]1n1ccc(=O)[nH]c1=O			<100 µg/mL
CN(C)c1ccc(Sc2ccc(NC3CCCCCC3)cc2)cc1	AD169	plaque count	48 µM
COc1cc(OC)c(NC(=S)Nc2ccc(NC(=O)c3ccco3)cc2)cc1Cl			0.5 µM
Nc1nc2c(ncn2[C@@H]2CO[C@H](CO)[C@@H](O)C2)c(=O)[nH]1		plaque count	1–10 µM
Cc1cc(C)cc(Cn2c(=S)ccn(CC(=O)c3ccccc3)c2=O)c1	AD169		>14 µM
C/C(=C\Cn1cc(I)c(=O)[nH]c1=O)CO			>100 µg/mL
Cc1cc(C)cc(Cn2c(=O)ccn(CC#N)c2=O)c1	AD169		>74 µM
CN(Cc1ccc(F)cc1)C(=O)N1C(=O)C[C@@H]1CSc1ncccn1		plaque count	8 µM
C[C@@H]1O[C@@H](n2c(Cl)nc3cc(Cl)c(Cl)cc32)[C@H](O)[C@@H]1O	17517 (GCV-susceptible)	plaque count	0.57 µM
COc1ccc(Oc2ccc(NC3CCCCCCC3)cc2)cc1	AD169	plaque count	40 µM
CC(=O)OC(C(C)C(C)C(C)(C)O)C1OC12C(O)CC1C3CCC4CC(=O)CCC4C3CCC12CO		MTT	6 µg/mL
OC[C@H]1O[C@@H](n2c(Br)nc3cc(Cl)c(Cl)cc32)[C@H](O)[C@@H]1O	Recombinant C4 (D341E)	plaque count	32 µM
Nc1nc2c(ncn2COC(CO)CO)c(=O)[nH]1	DAVIS	cytopathic effect	0.7 µg/mL
Oc1ccc(Oc2ccc(NC3CCCCC3)cc2)cc1	AD169	plaque count	3.6 µM
Nc1nc2c(ncn2COC(CO)CO)c(=O)[nH]1			5.6 µg/mL
[N-]=[N+]=N[C@H]1C[C@@H](CO)S[C@H]1n1ccc(N)nc1=O			<100 µg/mL
Cc1nc2ccc(CN(C)c3ccc(C(=O)N[C@@H](CCC(=O)O)C(=O)O)s3)cc2c(=O)[nH]1		virus yield	0.002 µM
Nc1ccn([C@H]2C[C@H](CO)[C@@H](CO)O2)c(=O)n1			1.7 µg/mL
Nc1nc2c(ncn2[C@@H]2C[C@H](CO)[C@H]2O)c(=O)[nH]1		plaque count	2–4 µM
Nc1ncc2c(ncn2/C=C2\CC2CO)n1		ELISA	>100 µM
Cc1ccccc1CNC(=O)c1ccc2cnccc2n1			0.3 µg/mL
C/C(=C\Cn1cc(C)c(=O)[nH]c1=O)CO			>100 µg/mL
CN(Cc1ccc([N+](=O)[O-])cc1)C(=O)N1C(=O)C[C@@H]1CSc1ncccn1		plaque count	1.2 µM
OC[C@H]1O[C@@H](n2c(Br)nc3cc(Cl)c(Cl)cc32)[C@H](O)[C@@H]1O		plaque count	2.9 µM
Nc1ccn(C[C@@H](CO)OCP(=O)(O)O)c(=O)n1	AD169	plaque count	0.44 µM
Cc1cn([C@H]2C[C@H](O)[C@]3(CO)C[C@H]23)c(=O)[nH]c1=O		plaque count	>20 µg/mL

The last 4 rows once more:

smiles	strain or isolate	method	result
CN(Cc1ccc([N+](=O)[O-])cc1)C(=O)N1C(=O)C[C@@H]1CSc1ncccn1		plaque count	1.2 µM
OC[C@H]1O[C@@H](n2c(Br)nc3cc(Cl)c(Cl)cc32)[C@H](O)[C@@H]1O		plaque count	2.9 µM
Nc1ccn(C[C@@H](CO)OCP(=O)(O)O)c(=O)n1	AD169	plaque count	0.44 µM
Cc1cn([C@H]2C[C@H](O)[C@]3(CO)C[C@H]23)c(=O)[nH]c1=O		plaque count	>20 µg/mL

Conditions beyond the fields shown may differ between rows. Two numbers with a dash give a range or band. An empty or dashed field is not shown.